The values below come from paper PMC10810197, “A KDPG sensor RccR governs Pseudomonas aeruginosa carbon metabolism and aminoglycoside antibiotic tolerance” (Nucleic Acids Research, 2023).

The data set has as its target RccR WT (Pseudomonas aeruginosa PAO1) (UniProt Q9HTC8). The data set can be described thus: EMSA. The note with it: EMSA: 10 nM FAM-DNA, 20 mM Tris-HCl pH 8.5, 150 mM KCl, 5 mM MgCl2, 1 mM EDTA, 1 mM DTT, 0.8% Tween 20, 2.5% glycerol, on ice 30 min, 6% native PAGE, 0.5x TBE, recombinant protein, protein details: C-terminal His6, label: FAM, probe letters rebuilt from the primers and the genome. In general terms: Mobility shift assays separate free from complexed probe on a gel.

Construct, isoform or probe ends are uncertain for at least one entry.

As for “GGTCAATCCTTCAAGAAATGTATTGGTTGAGCACCGACTGACCCACTCAAAACCTGCTGGTGAAGGTTGTCTTGCGGGTGGCTCACCGCTGCATGGCGAGAGAATGACCGTGGCGAAGAATGACGCCGAGGAGGGGGTGGAGACGAACAGTTCGCGGACCGTGCTTCTCGACTGGATCAAGTGCCGTTCGGCTCGTGGTTGCCGGTGGGCGACTCGCTGTCGAGTCTTTCGATCTGGCTGATACGTAAACGCTTCCCCGTCCCTCAGGACAACTTCGTTCCAGTCGCAATCTCGTCAAGCCGCCTTGTGGGCAGATCAACACGGTGGAGGCCGAGGGCGTATCGGCGCAGGCACCGGGAGCTCGTCGTTTCAGAGCCCCTGATTAGCGGGAGCGGGGCCATCATGCTCTGGAAAAAATCCGTCGTCAAACGTTTTGTAGTGTTTTTTCAAGACTACTACACGAAGGTCTAAGAGTGACCGGATGGTCTTGTCTGGTCGAGATGTTT (double strand) [aceA promoter]”, the binding result by setting is: (0.0625-8 mM KDPG) “binds”; (no KDPG) “binds”.
